Assay results: publication PMC7038234, “Screening of Natural Extracts for Inhibitors against Japanese Encephalitis Virus Infection” (Antimicrobial Agents and Chemotherapy, 2020)

tested on: JEV strain AT31; experiment: microbe, parasite or virus in culture; settings: Japanese encephalitis virus, 24 h, Primary screening of 1034 compounds in the natural extracts library

| SMILES | inhibition at 50 µM [%] |
| --- | --- |
| O=C1C[C@@H](c2ccc(O[C@@H]3O[C@H](CO)[C@@H](O)[C@H](O)[C@H]3O)cc2)Oc2cc(O)ccc21 [Liquiritin] | -6.55 |
| C[C@@H]1[C@H]2[C@H](O[C@@H]3O[C@H](CO)[C@@H](O)[C@H](O)[C@H]3O)OC=C(C(=O)O)[C@H]2C[C@@H]1O [Loganic acid] | 4.02 |
| COC(=O)C1=CO[C@@H](O[C@@H]2O[C@H](CO)[C@@H](O)[C@H](O)[C@H]2O)[C@@H]2[C@@H](C)[C@@H](O)C[C@H]12 [Loganin] | 25.4 |
| CC[C@H](C)C(=O)O[C@H]1C[C@@H](C)C=C2C=C[C@H](C)[C@H](CC[C@@H]3C[C@@H](O)CC(=O)O3)[C@H]21 [Lovastatin] | 60.1 |
| C=C(C)[C@@H]1CC[C@]2(C)CC[C@]3(C)[C@H](CC[C@@H]4[C@@]5(C)CC[C@H](O)C(C)(C)[C@@H]5CC[C@]43C)[C@@H]12 [Lupeol] | 31.3 |
| Oc1ccc2c(c1)OC[C@H]1c3cc4c(cc3O[C@@H]21)OCO4 [Maackiain] | 10.5 |
| C[C@H]1[C@H](C)CC[C@]2(C(=O)O)CC[C@]3(C)C(=CC[C@@H]4[C@@]5(C)C[C@@H](O)[C@H](O)[C@@](C)(CO)[C@@H]5[C@H](O)C[C@]43C)[C@H]12 [Madecassic acid] | 8.87 |
| C=CCc1ccc(O)c(-c2cc(CC=C)ccc2O)c1 [Magnolol] | -28.9 |
| O=C(O)/C=C\C(=O)O [Maleic acid] | -8.18 |
| O=C(O)CC(O)C(=O)O (centres unmarked) [Malic acid] | -11.7 |
| O=c1c2cc(O)c(O)cc2oc2cc(O)c([C@@H]3O[C@H](CO)[C@@H](O)[C@H](O)[C@H]3O)c(O)c12 [Mangiferin] | 5.76 |
| COc1ccc2[nH]cc(CCNC(C)=O)c2c1 [Melatonin] | 18.2 |
| C=CCc1ccc(OC)c(OC)c1 [Methyl eugenol] | -16 |
| COC(=O)c1cc(O)c(O)c(O)c1 [Methyl gallate] | 14.4 |
| C/C=C/c1ccc(OC)c(OC)c1 [Methyl isoeugenol] | -12.9 |
| CO[C@]1(CC[C@@H](C)CO[C@@H]2O[C@H](CO)[C@@H](O)[C@H](O)[C@H]2O)O[C@H]2C[C@H]3[C@@H]4CC=C5C[C@@H](O[C@@H]6O[C@H](CO)[C@@H](O[C@@H]7O[C@@H](C)[C@H](O)[C@@H](O)[C@H]7O)[C@H](O)[C@H]6O[C@@H]6O[C@@H](C)[C@H](O)[C@@H](O)[C@H]6O)CC[C@]5(C)[C@H]4CC[C@]3(C)[C@H]2[C@@H]1C [Methyl protodioscin] | 22.2 |
| COC(=O)c1ccc(O)cc1 [Methylparaben] | -4.14 |
| COC(=O)[C@@H](Cc1ccc(O)c(O)c1)OC(=O)/C=C/c1ccc(O)c(O)c1 [Methylrosmarinate] | 29.7 |
| COC(=O)C1=CO[C@@H](O[C@@H]2O[C@H](CO)[C@@H](O)[C@H](O)[C@H]2O)[C@@H]2[C@H](C)O[C@@H](O)C[C@H]12 [Morroniside] | 4.07 |
| C[C@@]12C[C@@]3(O)O[C@@H](O1)[C@]1(COC(=O)c4ccc(O)cc4)[C@@H]3C[C@]12O[C@@H]1O[C@H](COC(=O)c2ccccc2)[C@@H](O)[C@H](O)[C@H]1O [Mudanpioside C] | -17.2 |
| CC(=O)c1c(C)c([N+](=O)[O-])c(C(C)(C)C)c([N+](=O)[O-])c1C [Musk ketone] | 41.4 |

| SMILES | inhibition at 50 µM [%] |
| --- | --- |
| CCCCCCCCCCCCCC(=O)O [Myristic acid] | -11 |
| C[C@@H]1CCC=C2C(=O)C[C@H]3OOC(C)(C)[C@H]3[C@]21C [Nardosinone] | 16.5 |
| C[C@@H]1O[C@@H](OC[C@H]2O[C@@H](Oc3cc(O)c4c(c3)O[C@H](c3ccc(O)cc3)CC4=O)[C@H](O)[C@@H](O)[C@@H]2O)[C@H](O)[C@H](O)[C@H]1O [Narirutin] | 96.7 |
| C=C1CC[C@@H]2[C@](C)(CO[C@@H]3O[C@H](CO)[C@@H](O)[C@H](O)[C@H]3O)CCC[C@@]2(C)[C@@H]1CCC1=CCOC1=O [Neoandrographolide] | 23.3 |
| CC(C)=CCC/C(C)=C\CO [Nerol] | 1.46 |
| CC(=O)O[C@H]1CC(=O)OC(C)(C)[C@@H]2CC(=O)[C@]3(C)[C@H](CC[C@@]4(C)[C@H](c5ccoc5)OC(=O)[C@H]5O[C@]543)[C@@]12C [Nomilin] | 53.6 |
| COc1cc2c3c(c1OC)-c1ccccc1C[C@H]3N(C)CC2 [Nuciferine] | -0.167 |
| CC1(C)OC(=O)C=C[C@]2(C)[C@H]3CC[C@@]4(C)[C@H](c5ccoc5)OC(=O)[C@H]5O[C@]54[C@]3(C)C(=O)C[C@@H]12 [Obacunone] | 14.2 |
| COc1c(O)c(C)cc2c1C(=O)c1c(O)cccc1C2=O [Obtusifolin] | 52.5 |
| Cc1c(C(=O)NCCO)[n+]([O-])c2ccccc2[n+]1[O-] [Olaquindox] | 16.6 |
| CO[C@H]1C[C@H](O[C@H]2CC[C@@]3(C)[C@H](CC[C@@H]4[C@@H]3CC[C@]3(C)[C@@H](C5=CC(=O)OC5)[C@@H](OC(C)=O)C[C@]43O)C2)O[C@@H](C)[C@@H]1O [Oleandrin] | -16.9 |
| CC1(C)CC[C@]2(C(=O)O)CC[C@]3(C)C(=CC[C@@H]4[C@@]5(C)CCC(=O)C(C)(C)[C@@H]5CC[C@]43C)[C@@H]2C1 [Oleanonic acid] | 5.3 |
| C/C=C1/[C@H](O[C@@H]2O[C@H](CO)[C@@H](O)[C@H](O)[C@H]2O)OC=C(C(=O)OC)[C@H]1CC(=O)OCCc1ccc(O)c(O)c1 [Oleuropein] | -4.16 |
| COc1ccc(-c2coc3cc(O[C@@H]4O[C@H](CO)[C@@H](O)[C@H](O)[C@H]4O)ccc3c2=O)cc1 [Ononin] | 0.375 |
| O=c1cc(-c2ccc(O)c(O)c2)oc2c([C@@H]3O[C@H](CO)[C@@H](O)[C@H](O)[C@H]3O)c(O)cc(O)c12 [Orientin] | 1.09 |
| Oc1cc(O)cc(/C=C/c2ccc(O)cc2O)c1 [Oxyresveratrol] | 22.8 |
| COc1ccc(C(C)=O)c(O[C@@H]2O[C@H](CO[C@@H]3OC[C@H](O)[C@H](O)[C@H]3O)[C@@H](O)[C@H](O)[C@H]2O)c1 [Paeonolide] | 28.3 |
| COc1cc2c(cc1OC)-c1cc3ccc(OC)c(OC)c3c[n+]1CC2 [Palmatine chloride] | -9.32 |
| COc1ccc(-c2cc(=O)c3c(O)c(OC)c(O[C@@H]4O[C@H](CO[C@@H]5O[C@@H](C)[C@H](O)[C@@H](O)[C@H]5O)[C@@H](O)[C@H](O)[C@H]4O)cc3o2)cc1 [Pectolinarin] | -5.95 |
| C[C@@H]1CC[C@]2(C(=O)O[C@@H]3O[C@H](CO)[C@@H](O)[C@H](O)[C@H]3O)CC[C@]3(C)C(=CC[C@@H]4[C@@]5(C)CC[C@H](O)[C@@](C)(CO)[C@@H]5CC[C@]43C)[C@@H]2[C@]1(C)O [Pedunculoside] | -6.18 |
| O=C(CCc1ccc(O)cc1)c1c(O)cc(O)cc1O [Phloretin] | 4.16 |

| SMILES | inhibition at 50 µM [%] |
| --- | --- |
| O=C(CCc1ccc(O)cc1)c1c(O)cc(O)cc1O[C@@H]1O[C@H](CO)[C@@H](O)[C@H](O)[C@H]1O [Phlorizin] | 8.24 |
| O=P(O)(O)O[C@H]1[C@H](OP(=O)(O)O)[C@@H](OP(=O)(O)O)[C@H](OP(=O)(O)O)[C@@H](OP(=O)(O)O)[C@H]1OP(=O)(O)O [Phytic acid] | 38.6 |
| Oc1cc(O)cc(/C=C/c2ccc(O)c(O)c2)c1 [Piceatannol] | -21.4 |
| COc1cc([C@@H]2c3cc4c(cc3[C@H](O)[C@H]3COC(=O)[C@@H]23)OCO4)cc(OC)c1OC [Picropodophyllin] | -10.8 |
| COc1cc(C(=O)O[C@H]2[C@@H]3C=CO[C@@H](O[C@@H]4O[C@H](CO)[C@@H](O)[C@H](O)[C@H]4O)[C@@H]3[C@@]3(CO)O[C@@H]23)ccc1O [Picroside II] | -0.395 |
| O=C(/C=C/c1ccccc1)OC[C@H]1O[C@@H](O[C@@H]2OC=C[C@H]3[C@H](O)[C@@H]4O[C@]4(CO)[C@@H]23)[C@H](O)[C@@H](O)[C@@H]1O [Picroside I] | -1.37 |
| O=C(/C=C/C=C/c1ccc2c(c1)OCO2)N1CCCCC1 [Piperine] | 13.8 |
| C[C@@H]1O[C@@H](O[C@H]2[C@H](OC(=O)[C@]34CCC(C)(C)C[C@H]3C3=CC[C@@H]5[C@@]6(C)C[C@H](O)[C@H](O[C@@H]7O[C@H](CO)[C@@H](O)[C@H](O)[C@H]7O)C(CO)(CO)[C@@H]6CC[C@@]5(C)[C@]3(C)C[C@H]4O)OC[C@H](O)[C@@H]2O)[C@H](O)[C@H](O)[C@H]1O[C@@H]1OC[C@@H](O)[C@H](O[C@@H]2OC[C@](O)(CO)[C@H]2O)[C@H]1O [Platycodin D] | 91.8 |
| COc1cc([C@@H]2c3cc4c(cc3[C@H](O)[C@H]3COC(=O)[C@H]23)OCO4)cc(OC)c1OC [Podophyllotoxin] | -12.3 |
| C[C@@H]1O[C@@H](OC[C@H]2O[C@@H](OCCc3ccc(O)c(O)c3)[C@H](O)[C@@H](O[C@@H]3O[C@@H](C)[C@H](O)[C@@H](O)[C@H]3O)[C@@H]2OC(=O)/C=C/c2ccc(O)c(O)c2)[C@H](O)[C@H](O)[C@H]1O [Poliumoside] | 14.5 |
| OC[C@H]1O[C@@H](Oc2cc(O)cc(/C=C/c3ccc(O)cc3)c2)[C@H](O)[C@@H](O)[C@@H]1O [Polydatin] | -0.146 |
| COc1ccc([C@@H]2CC(=O)c3c(O)cc(O[C@@H]4O[C@H](CO)[C@@H](O)[C@H](O)[C@H]4O[C@@H]4O[C@@H](C)[C@H](O)[C@@H](O)[C@H]4O)cc3O2)cc1 [Poncirin] | -6.15 |
| CCCOC(=O)c1cc(O)c(O)c(O)c1 [Propyl gallate] | -11.4 |
| CCCOC(=O)c1ccc(O)cc1 [Propylparaben] | -0.514 |
| COc1cc(O)c2c(=O)c(-c3ccc(O)cc3)coc2c1 [Prunetin] | 22 |
| CC(=O)O[C@]12CCC(C)=CC[C@]13CC[C@H]2[C@@](C)(/C=C/C=C(\C)C(=O)O)OC3=O [Pseudolaric Acid A] | 46.2 |
| COC(=O)C1=CC[C@@]23CC[C@@H]([C@@](C)(/C=C/C=C(\C)C(=O)O)OC2=O)[C@@]3(OC(C)=O)CC1 [Pseudolaric Acid B] | -1.84 |
| O=C1c2ccccc2C(=O)c2c(O)c(O)cc(O)c21 [Purpurin] | 11.9 |
| O=c1c(O)c(-c2ccc(O)c(O)c2)oc2cc(O)cc(O)c12 [Quercetin Dihydrate] | 36 |
| O=c1c(O)c(-c2ccc(O)c(O)c2)oc2cc(O)cc(O)c12 [Quercetin] | 13.7 |
